Reference: article PMC7116727

Biological target: S1 component of the furin-cleaved SARS-CoV-2 spike (SARS-CoV-2) (UniProt P0DTC2)
Assay: cryo-EM structure

Q: “S1 component of the furin-cleaved SARS-CoV-2 spike (from UniProt P0DTC2 14-685) (domain or fragment)” was tested. Which stoichiometry N did it give?
A: The stoichiometry N was 3.
